Results of unrelated studies side by side (data: NIAID ChemDB).

Common to all: cytotoxicity tests; cells: 2.2.15; endpoint: CC50

CCn: concentration that lowers growth or viability of the cells by n%.

{"SMILES": "CCOC(=O)c1c(CS(=O)c2ccc(F)cc2)n(C2CC2)c2cc(Br)c(O)c(Cn3ccnc3)c12", "value": "55.56 µg/mL"}
{"SMILES": "Nc1nc2c(ncn2COCCO)c(=O)[nH]1", "value": "680 µM"}
{"SMILES": "CCOC(=O)c1c(CS(=O)c2ccccc2)n(C)c2cc(Br)c(O)c(CN(C)C)c12", "value": "96.23 µg/mL"}
{"SMILES": "C=C1[C@H](CO)[C@@H](O)C[C@@H]1n1cnc2c(=O)[nH]c(N)nc21", "value": "30 µM"}
{"SMILES": "CCC(c1nnc(SCCN2CCN(c3ccccn3)CC2)o1)S(=O)(=O)c1ccccc1", "value": ">20 µM"}
{"SMILES": "CCOC(=O)c1c(CS(=O)c2ccc(F)c(F)c2)n(C)c2cc(Br)c(O)c(Cn3ccnc3C)c12", "value": "40 µg/mL"}
{"SMILES": "COC(=O)CSc1nnc(CS(=O)(=O)c2ccccc2)o1", "value": ">1.5 µM"}
{"SMILES": "CCOC(=O)c1c(CS(=O)c2ccccc2)n(C2CC2)c2cc(Br)c(O)c(CN=C(N)N)c12", "value": "111 µg/mL"}
{"SMILES": "Nc1ncnc2c1ncn2O[C@H]1CO[C@@H](CO)O1", "value": ">100 µg/mL"}
{"SMILES": "CCC(c1nnc(SCCN2CCN(c3ncccn3)CC2)o1)S(=O)(=O)c1ccccc1", "value": ">10 µM"}
{"SMILES": "COC(=O)[C@H](C)NP(=O)(OCC1C/C1=C/n1cnc2c(=O)[nH]c(N)nc21)Oc1ccccc1", "value": ">100 µM"}
{"SMILES": "Nc1ccn([C@@H]2CS[C@H](CO)O2)c(=O)n1", "value": ">81 µM"}
{"SMILES": "COC(=O)[C@H](C)NP(=O)(OC[C@@H]1C[C@]12C[C@@H]2n1cnc2c(N)ncnc21)Oc1ccccc1", "value": "27 µM"}
{"SMILES": "COC(=O)[C@H](C)NP(=O)(OCC1C/C1=C/n1cnc2c(N)ncnc21)Oc1ccccc1", "value": "0.3 µM"}
{"SMILES": "Nc1nc(=O)n([C@H]2O[C@@H](CO)[C@H](O)[C@H]2F)cc1Cl", "value": ">200 µM"}
{"SMILES": "Nc1ncnc2c1ncn2O[C@@H]1CS[C@@H](CO)O1", "value": ">100 µg/mL"}
{"SMILES": "CCOC(=O)c1c(CS(=O)c2ccc(F)cc2)n(C)c2cc(Br)c(O)c(CN3CCOCC3)c12", "value": ">500 µg/mL"}
{"SMILES": "N=c1nc(N)c2ncn([C@@H]3O[C@H](CO)[C@@H](O)[C@H]3O)c2c(N)n1", "value": "501 µM"}
{"SMILES": "CCCCCCCCCCCCCCCCOCCCOP(=O)(O)CO[C@H](CO)Cn1cnc2c(N)ncnc21", "value": ">300 µM"}
{"SMILES": "CC(c1n[nH]c(=S)o1)S(=O)(=O)c1ccccc1", "value": ">7.5 µM"}
{"SMILES": "Cc1cccc(C(=O)Nc2ncc(Cl)s2)c1O", "value": ">100 µM"}
{"SMILES": "Nc1nc(=O)n([C@H]2O[C@@H](CO)[C@H](O)[C@H]2F)cc1Br", "value": ">200 µM"}
{"SMILES": "CCCCCCCCCCCCCCCCCCOCCOP(=O)(O)CO[C@H](CO)Cn1cnc2c(N)ncnc21", "value": ">300 µM"}
{"SMILES": "CCOC(=O)c1c(CS(=O)c2ccccc2)n(C)c2cc(Br)c(O)c(Cn3ccnc3C)c12", "value": "99.21 µg/mL"}
{"SMILES": "Nc1ncnc2c1ncn2[C@@H]1C=C[C@H](CO)O1", "value": "200 µM"}
{"SMILES": "OC[C@@H]1OC[C@H](On2cnc3c(Cl)ncnc32)O1", "value": ">100 µg/mL"}
{"SMILES": "Nc1ncnc2c1ncn2[C@@H]1C=C(CCO)[C@@H](O)[C@H]1O", "value": "1213 µM"}
{"SMILES": "O=c1[nH]cnc2c1ncn2O[C@H]1CS[C@@H](CO)O1", "value": ">100 µg/mL"}
{"SMILES": "O=c1[nH]c(=O)n([C@H]2O[C@@H](CO)[C@H](O)[C@H]2F)cc1Br", "value": ">200 µM"}
{"SMILES": "Nc1nc(F)c2ncn(/C=C3/CC3(CO)CO)c2n1", "value": "31.3 µM"}
{"SMILES": "COC(=O)[C@H](C)NP(=O)(OC[C@H]1C/C1=C/n1cnc2c(N)nc(N)nc21)Oc1ccccc1", "value": "45 µM"}
{"SMILES": "CCOC(=O)c1c(CS(=O)c2ccc(F)cc2)n(C)c2cc(Br)c(O)c(CN=C(N)N)c12", "value": "125 µg/mL"}
{"SMILES": "OC[C@@H]1OC[C@@H](On2cnc3c(Cl)ncnc32)O1", "value": ">100 µg/mL"}
{"SMILES": "O=C(CSc1nnc(CS(=O)(=O)c2ccccc2)o1)c1ccc(Cl)cc1", "value": ">1.5 µM"}
{"SMILES": "Nc1ncnc2c1ccn2[C@H]1C[C@@H](O)[C@H](O)[C@@H]1O", "value": "277 µg/mL"}
{"SMILES": "O=S(=O)(Cc1nnc(SCCN2CCN(c3ccccn3)CC2)o1)c1ccccc1", "value": ">40 µM"}
{"SMILES": "Nc1nc(N)c2ncn([C@H]3O[C@@H](CO)[C@H](O)[C@H]3F)c2n1", "value": ">200 µM"}
{"SMILES": "Nc1nc(=O)n([C@H]2O[C@@H](CO)[C@H](O)[C@H]2F)cc1F", "value": ">200 µM"}
{"SMILES": "Nc1nc2c(ncn2OC2COC(CO)O2)c(=O)[nH]1", "value": ">100 µg/mL"}

For reference, 5 entries again:

SMILES | value
COC(=O)[C@H](C)NP(=O)(OC[C@@H]1C[C@]12C[C@@H]2n1cnc2c(N)ncnc21)Oc1ccccc1 | 27 µM
Cc1cccc(C(=O)Nc2ncc(Cl)s2)c1O | >100 µM
Nc1nc(N)c2ncn([C@H]3O[C@@H](CO)[C@H](O)[C@H]3F)c2n1 | >200 µM
Nc1ncnc2c1ncn2[C@@H]1C=C[C@H](CO)O1 | 200 µM
CCOC(=O)c1c(CS(=O)c2ccccc2)n(C2CC2)c2cc(Br)c(O)c(CN=C(N)N)c12 | 111 µg/mL

Lines come from different laboratories, so protocols vary.